Compound potency records, mixed from different reports. Data source: NIAID ChemDB in PubChem.

Common to all: tests in culture; agent: Cytomegalovirus; measure: EC50

Blank or dashed fields: not listed here. Rows are shuffled and stem from different studies. Two numbers with a dash give a range or band. ECn: concentration that inhibits the pathogen or its effect by n%.

compound,strain or isolate,cells,read by,value
Nc1nc(Cl)c2ncn([C@@H](CCO)OCCO)c2n1,-,HFF,cytopathic effect,88 µM
Cc1nc(N2CCOC[C@@H]2C)nc(-n2ccnc2)c1[N+](=O)[O-],-,-,-,0.07 µM
CC(C)(C)[Si](C)(C)OC[C@H]1O[C@@H](n2ccc(=O)[nH]c2=O)[C@H](O[Si](C)(C)C(C)(C)C)C1(O)C(Cl)C(N)=O,-,MRC-5,plaque count,>5 µM
Cc1ccc(C)c(C(CO)S(=O)(=O)c2ccccn2)c1,-,HEL,cytopathic effect,>50 µg/mL
Nc1nc2c(ncn2[C@@H](CCO)OCCO)c(=O)[nH]1,-,HFF,cytopathic effect,>200 µM
Nc1ncc2c(ncn2COC(CO)CO)n1,-,-,-,0.1–1 µM
Cc1cn([C@@H]2O[C@H](CO)[C@](O)(C(F)(F)F)[C@H]2O)c(=O)[nH]c1=O,DAVIS,VERO,cytopathic effect,>50 µg/mL
Cc1ccc(C)c(C(Br)S(=O)(=O)c2cccc[n+]2[O-])c1,-,HEL,cytopathic effect,>50 µg/mL
O=C(CCCCCCCCC(=O)Nc1cc(S(=O)(=O)O)cc2cc(S(=O)(=O)O)cc(O)c12)Nc1cc(S(=O)(=O)O)cc2cc(S(=O)(=O)O)cc(O)c12,Isolate T-1095,MRC-5,plaque count,65 µM
Cc1ccc(C)c(CS(=O)(=O)c2ncccc2O)c1,-,HEL,cytopathic effect,>50 µg/mL
Cc1nc(N[C@H]2CCOC[C@@H]2C)nc(-n2ccnc2)c1[N+](=O)[O-],-,-,plaque count,<0.6 µM
COC(=O)/C=C1/[C@@H](O[Si](C)(C)C(C)(C)C)[C@H](n2ccc(=O)[nH]c2=O)O[C@@H]1CO[Si](C)(C)C(C)(C)C,-,MRC-5,plaque count,1 µM
CCCCCCCCCCCCCCCCOCCCOP(=O)(O)CO[C@H](CO)Cn1ccc(N)nc1=O,GDGP53,-,-,0.02 µM
C[C@@]1(O)[C@@H](CO)O[C@@H](n2cnc3c(N)ncnc32)[C@@H]1O,DAVIS,VERO,cytopathic effect,>5 µg/mL
O=C(CCCCCCC(=O)Nc1cc(S(=O)(=O)O)cc2cc(S(=O)(=O)O)cc(O)c12)Nc1cc(S(=O)(=O)O)cc2cc(S(=O)(=O)O)cc(O)c12,Isolate T-1095,MRC-5,plaque count,25 µM
Cc1ccc(C)c(CSc2ccc(Cl)c[n+]2[O-])c1,-,HEL,cytopathic effect,>50 µg/mL
CC(C)(C)[Si](C)(C)OC[C@H]1O[C@@H](n2ccc(=O)[nH]c2=O)[C@H](O[Si](C)(C)C(C)(C)C)/C1=C/CO,-,MRC-5,plaque count,2.1 µM
Cc1nc(N2CCC[C@H]2COC(C)C)nc(-n2ccnc2)c1[N+](=O)[O-],-,-,-,0.13 µM
COC(=O)C[C@@H](SCCO)n1cnc2c(Cl)nc(N)nc21,-,HFF,cytopathic effect,179 µM
Nc1ccn(C[C@@H](CO)OCP(=O)(O)O)c(=O)n1,AD169,-,plaque count,32 µg/mL
Cc1ccccc1CS(=O)(=O)c1c(C)ccc[n+]1[O-],-,HEL,cytopathic effect,>5 µg/mL
COC(=O)/C=C1/[C@@H](O[Si](C)(C)C(C)(C)C)[C@H](n2cc(C)c(=O)n(C)c2=O)O[C@@H]1CO[Si](C)(C)C(C)(C)C,-,MRC-5,plaque count,>36 µM
O=C(NO)c1ccc(O)c(O)c1,-,-,plaque count,20.7 µM
Nc1nc2c(ncn2[C@@H]2C[C@H](CO)[C@H]2CO)c(=O)[nH]1,-,-,-,1–10 µM
CC(C)Nc1nc2cc(Cl)c(Cl)cc2n1[C@H]1O[C@@H](CO)[C@H](O)[C@@H]1O,AD169,-,plaque count,0.1 µM
Nc1nc2c(ncn2[C@@H]2C=C[C@H](CO)CC2)c(=O)[nH]1,-,-,-,1–10 µM
Cc1ccc(C(=O)Nc2ccc(S(=O)(=O)O)c3cc(S(=O)(=O)O)cc(S(=O)(=O)O)c23)cc1NC(=O)c1cccc(NC(=O)Nc2cccc(C(=O)Nc3cc(C(=O)Nc4ccc(S(=O)(=O)O)c5cc(S(=O)(=O)O)cc(S(=O)(=O)O)c45)ccc3C)c2)c1,Isolate T-1082,MRC-5,plaque count,25 µM
Cc1cn([C@H]2C[C@H](O[Si](C)(C)C(C)(C)C)[C@@H](/C=C\C#N)O2)c(=O)[nH]c1=O,DAVIS,HeLa,-,10–20 µM
Nc1nc2c(ncn2COC(CO)CO)c(=O)[nH]1,-,-,-,1–10 µM
O=C(O)P(=O)(O)O,AD169,MRC-5,-,102.6 µM
Cc1cc(Sc2ccc(Cl)cc2)c2ncc(CSCCc3ccccc3)n2c1,AD169,-,plaque count,2.2 µg/mL

Repeating the first 4 entries:

compound	strain or isolate	cells	read by	value
Nc1nc(Cl)c2ncn([C@@H](CCO)OCCO)c2n1	-	HFF	cytopathic effect	88 µM
Cc1nc(N2CCOC[C@@H]2C)nc(-n2ccnc2)c1[N+](=O)[O-]	-	-	-	0.07 µM
CC(C)(C)[Si](C)(C)OC[C@H]1O[C@@H](n2ccc(=O)[nH]c2=O)[C@H](O[Si](C)(C)C(C)(C)C)C1(O)C(Cl)C(N)=O	-	MRC-5	plaque count	>5 µM
Cc1ccc(C)c(C(CO)S(=O)(=O)c2ccccn2)c1	-	HEL	cytopathic effect	>50 µg/mL